Columns and labels:
[1] = biological target: HIV-1 envelope glycoprotein (gp120/gp41) (HIV-1 clade B, BaL (infectious …, UniProt Q78225, strain)); assay: flow cytometry on cells; EGFP-CEM-NKr-CCR5-SNAP cells 5 days after infection with IMC BaL; Alexa Fluor-647 labelled mAbs; gate p24+low/CD4+; details: one partner purified
[2] = biological target: HIV-1 BaL envelope glycoprotein (Env, gp120/gp41) on AT-2-inactivated virions (HIV-1 clade B, BaL (env clone of the …, UniProt Q78225, strain)); assay: flow cytometry on cells; details: one partner purified

B1: monoclonal antibody N5-i5 (antibody, V domains shown)
VH: EVQLVESGGGLVQPGGSLRLSCAASGFTFSTYAMSWVRQAPGKGLEWVSSINNSGRNTFSADSVKGRFTISRDNSKNTLFLVMNSLRAEDTAVYYCAKDLRLGGGSDYWGQGTLVTVSS
VL: QSALTQPASVSGSPGQSITISCTGTSSDVGSYNFVSWYQQHPGKAPKLMIYEVSERPSGISNRFSGSKSGNTASLTISGLQAEDEADYYCSSYAGSTTFRVFGGGTKLTVR
binding result [1]: binds
binding result [2]: binds

— publication PMC5101508, “Molecular basis for epitope recognition by non-neutralizing anti-gp41 antibody F240” (Scientific Reports, 2016)
